PubChem BioAssay AID504761 | Drosophila RNAi Screening Center – 2011

Assay: 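Fly genes whose silencing reduces dengue virus type 2 infection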 (primary screen)
System: D.Mel-2 cells from Drosophila
Reagent: long dsRNA against Drosophila genes
Treatment: infection with dengue virus type 2; dose and infection time not stated
Read-out: 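Per well on two replicate plates, imaging gave the percent of cells positive for viral envelope protein, ranked by infection, and a nuclear count of cells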
Reading the numbers: infection score: higher = more virus-infected cells; cell count: higher = more cells in the well
Active means: 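Very low infection ranking in both replicate wells (chance probability at most 0.065), then a retest showing infection dropped 1.5-fold or more at p below 0.05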
Meaning of the calls: active = confirmed: knock-down lowers infection; inactive = not picked or not confirmed
In all, the deposit lists about 22,000 reagents; this is a random part of those with a known target gene and a result. In the full data, 116 (0.52%) were called active. 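Calls depend on retest data that are not deposited; infection was ranked per plate without normalising between plates; the unit of the infection score is not given.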 Raw values are not corrected between plates. A number with no mark means an inactive call. The numbers tell different reagents against one gene apart. A plus sign joins genes that one reagent is predicted to hit. No sequences are given here. Not stated in the record: the amount of reagent, the time to read-out.

target gene,reagent,"infection score, replicate 1","infection score, replicate 2","cell count, replicate 1","cell count, replicate 2"
Dim1,1,3.86,5.04,5702,5876
CG44014,1,5.99,8.79,6193,6346
CG44014,2,17.7,10.3,5049,5111
CG15098,1,3.89,1.26,6486,6405
CG15098,2,40.5,40.8,5818,5064
Ppa,1,4.11,6.63,6892,6638
Ppa,2,8.81,26.3,5700,5200
fs(1)h,1,5.6,19.6,6607,6886
fs(1)h,2,21.2,20.3,1645,4271
CG5281,1,2.44,5.81,6109,6623
Spt,1,0.42,,473,471
Spt,2,0.4,6.94,499,1829
CG17683,1,7.71,1.24,3503,3556
CG17683,2,5.46,12,4815,1869
Ugt303A1,1,1.28,4.99,6775,6847
CG14118,1,0.37,1.09,6262,6218
Dap160,1,8.47,14.5,6201,4852
Dap160,2,30.1,18,5193,7170
Tbca,1,1.96,2.8,5601,6181
Tbca,2,,24.2,351,5630
PH4alphaSG2,1,,1.82,379,603
GlnRS,1,3.56,11.3,5022,5210
CG7384,1,10.5,12.5,6250,6329
CG15293,1,20.6,4.71,5662,849
lectin-24A,1,7.31,5.65,6399,5965
CR12628 + Mgstl,1,6.89,23.4,6908,6459
CR12628 + Mgstl,2,14.7,3.08,6154,5719
Neto,1,26.3,3.42,5671,6143
Neto,2,3.02,1.55,6390,6497
Neto,3,0.43,7.28,6546,6483
Neto,4,0.9,1.35,6331,6821
CG7634,1,1.21,4.1,5889,5855
Wnt5,1,3.51,8.74,6208,6541
Wnt5,2,15.8,,5060,387
faf,1,0.68,6.23,1175,4973
Kal1,1,1.84,1.62,6647,6373
OtopLa,1,3.69,2.45,6610,6413
OtopLa,2,1.81,7.35,6645,6610
OtopLa,3,13.1,10.2,3879,5950
CG14352,1,0.64,1.41,6680,6534
CG15548,1,1.29,4.91,854,6950
CG15548,2,2.21,2.95,6192,6310
Eip78C,1,0.95,4.31,6025,6596
CG9377,1,14.4,12.4,6434,6196
Nox,1,16,27,3996,5459
Nox,2,22.2,21.1,5788,1913
Nox,3,6.85,15.1,6935,6517
Nox,4,22.2,15.8,6512,6308
STUB1,1,3.68,5.86,6088,6044

No new results follow: 5 of the entries above.
target gene,reagent,"infection score, replicate 1","infection score, replicate 2","cell count, replicate 1","cell count, replicate 2"
fs(1)h,1,5.6,19.6,6607,6886
fs(1)h,2,21.2,20.3,1645,4271
CG5281,1,2.44,5.81,6109,6623
Spt,1,0.42,,473,471
Spt,2,0.4,6.94,499,1829

Additional entries follow.
target gene,reagent,"infection score, replicate 1","infection score, replicate 2","cell count, replicate 1","cell count, replicate 2"
Cpr78Ca,1,7.35,9.25,6735,6530
dmpd,1,8.36,11.8,5787,6088
Tmtc1,1,4.03,4.34,5732,5755
CG15528,1,4.52,3.47,6702,7069
ida,1,2.37,2.47,5224,5187
Mkrn1,1,3.02,1.21,5333,6520
Mkrn1,2,1.53,2.13,5868,6060
CG9691,1,5.27,3.48,6380,6486
SkpA,1,11.1,11.4,3844,3479
SkpA,2,3.63,3.66,5930,6096
BaraC,1,2.01,0.75,5828,6095
CG5359,1,4.01,8.56,6510,7017
CG6791,1,6.39,3.22,6622,6593
CG6791,2,8.06,10.2,2010,6515
ppk31,1,1.47,2.02,6202,5600
ppk31,2,6.18,3.96,6209,6357
CG10904,1,,5.51,405,2159
Octbeta3R,1,2,11.6,5963,6039
Octbeta3R,2,5.59,5.19,5955,5893
Octbeta3R,3,2.68,14.2,6743,2755
Octbeta3R,4,4.62,15.7,1795,2772
Octbeta3R,5,4.14,3.96,6231,6586
Octbeta3R,6,3.31,10.6,6443,6577
Octbeta3R,7,7.14,8.99,6370,5973
Octbeta3R,8,2.97,3.23,6255,6683
